Compound potency records, mixed from different reports. Data source: NIAID ChemDB in PubChem.

Shared fields: tests in culture; agent: HIV-1; read-out: EC50

An empty or dashed field is not shown.

compound | strain or isolate | conditions | mutations | cell line | method | value
Cc1cn([C@H]2C[C@H](N=[N+]=[N-])[C@@H](CO)O2)c(=O)[nH]c1=O | IIIB | - | ATV-P36 atazanavir-resistant mutant | MT-2 | ATP | 0.504 µM
Cc1ccnc2c1NC(=O)c1cccnc1N2C1CC1 | HXB2 | - | RT-M41L Y181C T215Y | HT4 + HT4 LacZ-1 | plaque count | 10 µM
C#C[C@]1(CO)O[C@@H](n2cnc3c(N)nc(F)nc32)C[C@@H]1O | Clinical isolate | - | M41L/A114S/M184V | MT4-GFP | fluorescence | 0.06868 µM
Cc1ccc(S(=O)(=O)N(CC(C)C)C[C@@H](O)[C@H](Cc2ccccc2)NC(=O)O[C@H]2CO[C@H]3OCC[C@H]32)cc1 | IIIB | - | LPV-P31 lopinavir-resistant mutant | MT-2 | ATP | 0.0028 µM
CCCc1cc(=O)oc2c3c(c4c(c12)OC(C)(C)C=C4)O[C@H](C)[C@@H](C)[C@@H]3O | UC10-resistant (RT K103N) | - | RT-K103N | CEM + CEM-SS | XTT | >27 µM
CCn1nc(Cc2ccc(F)cc2F)cc1C1CCN(C[C@H]2CN([C@@H](C(=O)O)C3CCCCC3)C[C@@H]2c2cccc(F)c2)CC1 | BaL | 50% human serum | - | HeLa | β-galactosidase | <0.033 µM
CC(=O)N1CCC(C(=O)N(CCCN2CCC(Cc3ccc(C(N)=O)cc3)CC2)c2ccc(C)c(Cl)c2)CC1 | R5 subtype F_1 recombinant | - | - | U87 (CD4+ CCR5+) + U87 | luciferase | 0.008 µM
Cn1c2ccccc2c2c1cc(C#N)c(=O)n2-c1ccc([N+](=O)[O-])cc1 | Recombinant | - | RT-V118I M184V | HeLa | luciferase | 0.189 µM
Cc1cc(S(N)(=O)=O)ccc1NC(=O)COc1ccc(Cl)cc1C(=O)c1cc(Cl)cc(C#N)c1 | NNRTI-resistant (RT Y188C) | - | RT-Y188C | MAGI | β-galactosidase | 0.00011 µM
N#Cc1cc2[nH]c3ccccc3c2n(-c2ccc([N+](=O)[O-])cc2)c1=O | NNRTI-resistant | - | RT-K103N | HeLa | luciferase | 0.094 µM
CC[C@@H](C)[C@H](C(=O)O)N1C[C@H](CN2CCC(c3cc(Cc4cc(C(F)(F)F)cc(C(F)(F)F)c4)nn3CC)CC2)[C@@H](c2cccc(F)c2)C1 | BaL | - | - | HeLa | β-galactosidase | <0.033 µM
Cc1ccnc2c1NC(=O)c1cccnc1N2C1CC1 | NL4-3 | - | - | CEM + CEM-SS | XTT | 0.02 µM
CC(C)=CCN1Cc2cc(Cl)cc3[nH]c(=S)n(c23)C[C@@H]1C | - | - | RT-L74V K101E | MT-4 | - | <3 µM
CCN(c1nc(F)ccc1NC(C)(C)C)C1CCN(C(=O)c2cc3cc(NC(=O)N4CCN(C)CC4)ccc3[nH]2)CC1 | IIIB | - | - | MT-2 | ATP | 0.0082 µM
CC[C@H](C)[C@H](C(=O)O)N1C[C@H](CN2CCC(c3cc(Cc4cccc(OC)c4)nn3CC)CC2)[C@@H](c2cccc(F)c2)C1 | BaL | 50% human serum | - | HeLa | β-galactosidase | <0.1 µM
Cc1ccnc2c1NC(=O)c1cccnc1N2C1CC1 | ROJO | clinical isolate | - | PBMC | cytopathic effect / XTT | 0.3 µM
CCn1nc(Cc2cccnc2)cc1C1CCN(C[C@H]2CN([C@@H](C(=O)O)C3CCCCC3)C[C@@H]2c2cccc(F)c2)CC1 | BaL | 50% human serum | - | HeLa | β-galactosidase | <0.033 µM
CO[P@](=O)(c1cc(C)cc(/C=C/C#N)c1)c1c(C(N)=O)[nH]c2ccc(Cl)c(F)c12 | Clinical isolate | - | Y181C | MT-2 | - | 0.0014 µM
CC(=O)c1ccc(C)cc1NC(C(N)=O)c1c(Cl)cccc1Cl | Dihydrocostatolide-resistant (RT-L100I) | - | RT-L100I | CEM + CEM-SS | XTT | 0.02 µM
Nc1nc(NC2CC2)c2ncn([C@H]3C=C[C@@H](CO)C3)c2n1 | Recombinant | - | RT-M41L A62V S68N G112S M184V | HeLa | luciferase | 0.99 µM
CCCc1cc(=O)oc2c3c(c4c(c12)OC(C)(C)C=C4)O[C@@H](C)[C@H](C)[C@@H]3O | IIIB | - | - | CEMx174 + CEM | XTT | 0.15 µM
CCOc1ccc(Cc2cc(C3CCN(C[C@H]4CN([C@@H](C(=O)O)C5CCCCC5)C[C@@H]4c4cccc(F)c4)CC3)n(CC)n2)cc1 | BaL | 50% human serum | - | HeLa | β-galactosidase | <0.033 µM
CCc1c(CC2CCCCC2)nc(SCC(=O)c2ccccc2)[nH]c1=O | Clinical isolate | - | TC-2 | C8166 | ELISA | 0.00874 µM
Cc1cn([C@H]2C[C@H](N=[N+]=[N-])[C@@H](CO)O2)c(=O)[nH]c1=O | Costatolide-resistant (RT Y188H) | - | RT-Y188H | CEM + CEM-SS | XTT | 0.004 µM

ECn is the concentration giving n% inhibition of infection, replication or growth. Lines come from different laboratories, so protocols vary.